Measurements from paper PMC10303457 (2023).

What was measured:
[1] = target: Human IMPα1 aa 71–529 (lacking the IMPβ binding domain) (human, UniProt P52292 71-529); experiment: FP
[2] = target: Human IMPα5 aa 74–538 (lacking the IMPβ binding domain) (human, UniProt P52294 74-538); experiment: FP

Q: VRRAGKYYSVEYCKRKID [FITC-labelled HeV M NLS2 peptide] was tested. Which Kd [1] did it give?
A: Its Kd is 8.71 µM.

Q: What about the Kd [2] of the same binder?
A: The Kd was 5.28 µM.
